Anti-infective test results gathered from many reports (values: NIAID ChemDB through PubChem).

Shared fields: whole-cell or culture tests; organism: Candida albicans

Blank or dashed fields: not listed here. a–b is a range or a potency band. MIC50, MIC90 and the like: level of inhibition, or share of isolates inhibited. Rows are shuffled and stem from different studies.

SMILES,mutations,read by,strain,read-out,value
S=C(N/N=C/c1ccc(-n2ccnc2)cc1)Nc1ccccc1,,broth dilution,ATCC 18804,MIC50,>778 µM
CCCCCC[C@H]1C(=O)O[C@H](C)[C@H](NC(=O)c2cccc(NC=O)c2O)C(=O)O[C@@H](C)[C@@H]1OC(=O)CC(C)C,,,IFO1061,MIC,0.1 µg/mL
CC(C)(CCCS(=O)(=O)O)N(Cl)Cl,,,ATCC 10231,MFC,>128 µg/mL
Cc1ccc2nc(C(C#N)Cc3cc4ccccc4nc3N3CCOCC3)[nH]c2c1,,broth dilution,MTCC 227,MIC,250 µg/mL
CC(C)(CS(=O)(=O)[O-])N(Cl)Cl,,,ATCC 10231,MFC,32 µg/mL
CN[C@@H]1[C@H](O[C@@H]2OC[C@@H](O)[C@H](O)[C@H]2O)[C@@H](O)[C@H](O[C@H]2c3cc(C)c(C(=O)N[C@H](C)C(=O)O)c(O)c3-c3c(cc4c(c3O)C(=O)c3cc(OC)cc(O)c3C4=O)[C@@H]2O)O[C@@H]1C,,,A9540,MIC,12.5 µg/mL
NC(=S)N/N=C/c1cnc[nH]1,,broth dilution,ATCC 18804,MIC50,>1480 µM
C[C@@H](c1nc(-c2ccc(C#N)cc2)cs1)[C@](O)(Cn1cnnc1)c1ccc(F)cc1F,,,Isogenic isolate 13 Erg11 (4-5X) R467K,MIC,0.03 µg/mL
CCN(CC)N1C(=O)C(C(Sc2ccccc2)c2c(Cl)cc(C)cc2Cl)SC1=S,,broth dilution,ATCC 2091,MIC,32 µg/mL
C[C@@H]1[C@H](O)[C@@H](C)/C=C/C=C/CC/C=C/C=C/C=C/C=C/C(O[C@H]2O[C@H](C)[C@@H](O)[C@H](N)[C@@H]2O)CC2O[C@](O)(CC(O)C(O)CCC(O)CC(O)CC(O)CC(=O)O[C@H]1C)CC(O)C2C(=O)O,,broth dilution,MTCC 227,MIC,100 µg/mL
C[N+]1=Cc2cc3c(cc2CC1)OCO3.[I-],Fluconazole-resistant,broth dilution,Clinical isolate,MIC80,>64 µg/mL
CN(C/C=C/C#CC(C)(C)C)Cc1cccc2ccccc12,,broth dilution,ATCC 10231,MIC100,>100 µg/mL
COc1ccc2c(Cc3cccc(F)c3)c3[n+](cc2c1OC)CCc1cc2c(cc1-3)OCO2.[Br-],Fluconazole-resistant,broth dilution,Clinical isolate,MIC80,>64 µg/mL
CC(=O)N/N=C/c1ccc(-n2ccnc2)cc1,,broth dilution,ATCC 18804,MIC50,>1100 µM
CN[C@@H]1[C@H](O[C@@H]2OC[C@@H](O)[C@H](O)[C@H]2O)[C@@H](O)[C@H](O[C@H]2c3cc(C)c(C(N)=O)c(O)c3-c3c(cc4c(c3O)C(=O)c3cc(OC)cc(O)c3C4=O)[C@@H]2O)O[C@@H]1C,,,A9540,MIC,>100 µg/mL
CCN(CC)N1C(=O)C(C(Sc2ccccc2)c2ccc(OC)cc2)SC1=S,,broth dilution,ATCC 2091,MIC,64 µg/mL
COc1cc2cc3c(c(-c4ccc5c(c4)OCO5)c2cc1OC)C(=O)OC3O,,,,MIC,≥8 µg/mL
COc1ccccc1C=O,,agar diffusion / agar,1131,MIC90,500–600 µg/mL
COc1cc(O)c2c(c1)C(=O)c1c(cc3c(c1O)-c1c(cc(C)c(C(=O)N[C@H](C)C(=O)O)c1O)[C@H](O[C@@H]1O[C@H](C)[C@H](N)[C@H](O[C@@H]4OC[C@@H](O)[C@H](O)[C@@H]4O)[C@H]1O)[C@H]3O)C2=O,,,ATCC 32354,MIC,1.6 µg/mL
COc1ccc2nc(N3CCOCC3)c(/C=C(/C#N)c3nc4ccc(C)cc4[nH]3)cc2c1,,broth dilution,MTCC 227,MIC,500 µg/mL
CCCCCCCCCCNC1CCc2cc(O)ccc2C1,,,,MIC,<0.125 µM
Cc1c2cc(O)c(O)cc2cc[n+]1C,,,IFO1061,MIC,>500 µg/mL
CC1=[N+](Cc2ccccc2)CCc2cc3c(cc21)OCO3.[Br-],Fluconazole-resistant,broth dilution,Clinical isolate,MIC80,>64 µg/mL
CCCOc1cc2cc[n+](C)c(CCC)c2cc1OCCC,,,IFO1061,MIC,>500 µg/mL
CNC(=S)N/N=C/c1ccc(-n2ccnc2)cc1,,broth dilution,ATCC 18804,MIC50,>964 µM
CC/C=C/C(CC)C/C=C/[C@@]1(CC)C[C@H](C)[C@@H](CC(=O)O)OO1,,,,MIC,5 µg/mL
CCC(C)n1ncn(-c2ccc(N3CCN(c4ccc(OC[C@H]5CO[C@](Cn6cncn6)(c6ccc(Cl)cc6Cl)O5)cc4)CC3)cc2)c1=O,,broth dilution,Clinical isolates,MIC,0.03 µg/mL
O=C1NC(=S)SC1C(Sc1ccccc1)c1ccc2ccccc2c1,,broth dilution,ATCC 2091,MIC,64 µg/mL
C[C@H]1[C@H]2CC[C@H]3[C@@H]4CC=C5C[C@@H](N(C)C)CC[C@]5(C)[C@H]4CC[C@]23CN1C,,,,MIC,31–62 µg/mL
c1ccc(CN(Cc2ccccn2)Cc2c3ccccc3cc3ccccc23)nc1,,broth dilution,ATCC 10213,MIC,>1000 µg/mL
CCN(CC)N1C(=O)C(C(Sc2ccccc2)c2ccc(C)cc2C)SC1=S,,broth dilution,ATCC 2091,MIC,32 µg/mL
C[C@@H]1[C@H](O)[C@@H](C)/C=C/C=C/CC/C=C/C=C/C=C/C=C/C(O[C@H]2O[C@H](C)[C@@H](O)[C@H](N)[C@@H]2O)CC2O[C@](O)(CC(O)C(O)CCC(O)CC(O)CC(O)CC(=O)O[C@H]1C)CC(O)C2C(=O)O,,broth dilution,MTCC 227,MIC,100 µg/mL
C[C@@H]1[C@H](O)[C@@H](C)/C=C/C=C/CC/C=C/C=C/C=C/C=C/C(O[C@H]2O[C@H](C)[C@@H](O)[C@H](N)[C@@H]2O)CC2O[C@](O)(CC(O)C(O)CCC(O)CC(O)CC(O)CC(=O)O[C@H]1C)CC(O)C2C(=O)O,,broth dilution,Clinical isolates,MIC,2 µg/mL
S=C(N/N=C/c1cnc[nH]1)Nc1ccccc1,,broth dilution,ATCC 18804,MIC50,>1020 µM
Nc1c(Br)cc(Br)cc1CNC1CCC(O)CC1,,broth dilution,NCCLS67/ ATCC 90029,MIC,1 µg/mL
CN[C@@H]1[C@H](O[C@@H]2OC[C@@H](O)[C@H](O)[C@H]2O)[C@@H](O)[C@H](O[C@H]2c3cc(C)c(C(=O)N[C@@H](CC(=O)O)C(=O)O)c(O)c3-c3c(cc4c(c3O)C(=O)c3cc(OC)cc(O)c3C4=O)[C@@H]2O)O[C@@H]1C,,,A9540,MIC,>100 µg/mL
OC(Cn1cncn1)(Cn1cncn1)c1ccc(F)cc1F,,,ATCC 10231,MIC50,1 µg/mL
CC(/C=C/C(O)C(C)/C=C/C(=O)O)=C\CC1OC2(CCC(C)C(/C=C/C(C)=C/C(=O)O)O2)CCC1C,,,ATCC 10231,MIC,15 µg/mL
Clc1ccc(COC(Cn2ccnc2)c2ccc(Cl)cc2Cl)c(Cl)c1,,broth dilution,Clinical isolates,MIC,0.03 µg/mL
O=C(N/N=C\n1ccnc1)c1ccccc1,,broth dilution,ATCC 18804,MIC50,>1167 µM
COc1ccc(Cc2nccc3cc(OC)c(OC)cc23)cc1OC,,,IFO1061,MIC,>500 µg/mL
CCCCCCCCNC1CCc2cc(O)ccc2C1,,,,MIC,<0.125 µM
NC(=S)N/N=C/c1ccc(-n2ccnc2)cc1,,broth dilution,ATCC 18804,MIC50,>510 µM
C=C1/C=C(\C)[C@H](CC)OC(=O)[C@H](C)C(=O)C(O)(CO)C/C(OC)=C/[C@@H](C)C1,,,ATCC 90028,MFC,10 µg/mL
CN[C@@H]1[C@H](O)[C@@H](O)[C@H](O[C@H]2c3cc(C)c(C(=O)N[C@H](C)C(=O)O)c(O)c3-c3c(cc4c(c3O)C(=O)c3cc(OC)cc(O)c3C4=O)[C@@H]2O)O[C@@H]1C,,,83-2-14,MIC,3.1 µg/mL
c1ccc([C@H]2CN3CCSC3=N2)cc1,,broth dilution,ATCC 10231,MIC,>120 µM
CCCCCCCCCCCCCCCCCCNC1CCc2c(O)cccc2C1,,,,MIC,64 µM
CCN(CC)N1C(=O)C(C(Sc2ccccc2)c2ccc(Br)cc2)SC1=S,,broth dilution,ATCC 2091,MIC,64 µg/mL
CCC(C)CC(C)CCCCCCCCC(=O)N[C@H]1C[C@@H](O)[C@H](NCCN)NC(=O)[C@@H]2[C@@H](O)CCN2C(=O)[C@H]([C@H](O)CCN)NC(=O)[C@H]([C@H](O)[C@@H](O)c2ccc(O)cc2)NC(=O)[C@@H]2C[C@@H](O)CN2C(=O)[C@H]([C@@H](C)O)NC1=O,,broth dilution,1399,MIC,0.5 µg/mL
O=C1NC(=S)S/C1=C\c1ccco1,,broth dilution,ATCC 2091,MIC,64 µg/mL
CN[C@@H]1[C@H](O[C@@H]2OC[C@@H](O)[C@H](O)[C@H]2O)[C@@H](O)[C@H](O[C@H]2c3cc(C)c(C(=O)NCCN)c(O)c3-c3c(cc4c(c3O)C(=O)c3cc(OC)cc(O)c3C4=O)[C@@H]2O)O[C@@H]1C,,,A9540,MIC,>100 µg/mL

Repeating the first 3 entries:

| SMILES | mutations | read by | strain | read-out | value |
|---|---|---|---|---|---|
| S=C(N/N=C/c1ccc(-n2ccnc2)cc1)Nc1ccccc1 |  | broth dilution | ATCC 18804 | MIC50 | >778 µM |
| CCCCCC[C@H]1C(=O)O[C@H](C)[C@H](NC(=O)c2cccc(NC=O)c2O)C(=O)O[C@@H](C)[C@@H]1OC(=O)CC(C)C |  |  | IFO1061 | MIC | 0.1 µg/mL |
| CC(C)(CCCS(=O)(=O)O)N(Cl)Cl |  |  | ATCC 10231 | MFC | >128 µg/mL |